Data source: PubChem BioAssay AID624099 (ICCB-Longwood, 2012)

Purpose: 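Human genes that papillomavirus E2 requires to repress the HPV18 LCR promoter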 (primary screen)
System: human C33A cervical carcinoma cells (HPV-negative) stably expressing BPV1 E2 and an HPV18 LCR luciferase reporter
Reagents: siRNA pool against human genes, 40 nM
Timing: 72 h
Detection: 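HPV18 LCR reporter light per well, converted to plate-wise z-scores that exclude control wells, and averaged over triplicate plates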
Scale: mean z-score and z-score: higher = stronger reporter signal, weaker E2 silencing
Call rule: 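Hit if mean z-score reaches 2 and two or more of three replicate z-scores also reach 2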
In all, the deposit lists about 21,000 reagents; this is a part drawn at random. Over the whole deposit, 497 (2.4%) got an active call. 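Higher z means weaker E2 silencing; only reporter increases were scored, and knock-downs that hurt cell survival may mask genuine repressor factors.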 No sequences are given here.

After knock-down of DLX2 [SID134316162], the record shows mean z-score -1.47; z-score, replicate A = -1.42; z-score, replicate B = -1.65; z-score, replicate C = -1.33; inactive.
After knock-down of ARL6 [SID134321240] the results were mean z-score -0.57; z-score, replicate A = -0.85; z-score, replicate B = -0.26; z-score, replicate C = -0.6; inactive.
For ZDBF2 [SID134327268], the entry reads mean z-score 0.4; z-score, replicate A = 0.74; z-score, replicate B = 0.57; z-score, replicate C = -0.11; inactive.
Silencing of R3HDM2 [SID134317196] resulted in: mean z-score -1.04; z-score, replicate A = -1; z-score, replicate B = -1.05; z-score, replicate C = -1.06; inactive.
Silencing of KLHL23 [SID134319677] gave: mean z-score 0.33; z-score, replicate A = 1.48; z-score, replicate B = 0.11; z-score, replicate C = -0.59; inactive.
For CPNE5 [SID134317389], the entry reads mean z-score -1.03; z-score, replicate A = -1.09; z-score, replicate B = -0.91; z-score, replicate C = -1.09; inactive.
With knock-down of TSFM [SID134320334], the record shows mean z-score 0.5; z-score, replicate A = 0.44; z-score, replicate B = 0.31; z-score, replicate C = 0.75; inactive.
For PAQR6 [SID134312986] the deposit lists mean z-score 0.01; z-score, replicate A = -0.32; z-score, replicate B = -0.13; z-score, replicate C = 0.47; inactive.
OR8G2P [SID134328238] gave mean z-score 0.82; z-score, replicate A = 0.71; z-score, replicate B = 0.87; z-score, replicate C = 0.88; inactive.
CTNNB1 [SID134309920] showed mean z-score 1.31; z-score, replicate A = 1.5; z-score, replicate B = 1.35; z-score, replicate C = 1.09; inactive.
With knock-down of LINC00265 [SID134326321], the screen gave mean z-score 0.05; z-score, replicate A = -0.08; z-score, replicate B = 0.08; z-score, replicate C = 0.14; inactive.
Depletion of TPM2 [SID134316919] gave: mean z-score -0.47; z-score, replicate A = -0.25; z-score, replicate B = -0.57; z-score, replicate C = -0.58; inactive.
After knock-down of LINC02167 [SID134328693] the results were mean z-score 0.32; z-score, replicate A = -0.08; z-score, replicate B = 0.67; z-score, replicate C = 0.36; inactive.
For HESX1 [SID134323304], the values are mean z-score -1.31; z-score, replicate A = -0.92; z-score, replicate B = -1.45; z-score, replicate C = -1.57; inactive.
For MCCC2 [SID134310668], the entry reads mean z-score -0.2; z-score, replicate A = -0.29; z-score, replicate B = 0.05; z-score, replicate C = -0.37; inactive.
With knock-down of PRRC1 [SID134322078] the results were mean z-score 0.02; z-score, replicate A = 0.36; z-score, replicate B = -0.09; z-score, replicate C = -0.2; inactive.
Silencing of LOC401599 (retired record) [SID134329159] came out at: mean z-score 0.32; z-score, replicate A = 0.71; z-score, replicate B = -0.08; z-score, replicate C = 0.33; inactive.
Knock-down of DDI2 [SID134313739] came out at: mean z-score 1.19; z-score, replicate A = 1.29; z-score, replicate B = 1.11; z-score, replicate C = 1.17; inactive.
After knock-down of GUCA2A [SID134325062], the record shows mean z-score 1.06; z-score, replicate A = 1.47; z-score, replicate B = 1.1; z-score, replicate C = 0.62; inactive.
Depletion of PTGIR [SID134311147] came out at: mean z-score 0.63; z-score, replicate A = 0.49; z-score, replicate B = 0.53; z-score, replicate C = 0.88; inactive.
ELP2 [SID134324678] gave mean z-score -0.04; z-score, replicate A = 0.16; z-score, replicate B = -0.3; z-score, replicate C = 0.03; inactive.

2 entries from above, arranged by “mean z-score”, highest first.
TSFM [SID134320334]: mean z-score = 0.5; z-score, replicate A = 0.44; z-score, replicate B = 0.31; z-score, replicate C = 0.75; call = inactive
PAQR6 [SID134312986]: mean z-score = 0.01; z-score, replicate A = -0.32; z-score, replicate B = -0.13; z-score, replicate C = 0.47; call = inactive
